{"source": "PubChem BioAssay AID1259414, Drosophila RNAi Screening Center | 2018", "test": "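Fly genes that alter Wolbachia amount inside host cells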 (primary screen)", "cell system": "Drosophila JW18 cells infected with Wolbachia", "reagents": "long dsRNA against Drosophila genes, 0.25 µg dsRNA per well of a 384-well plate", "duration": "5 days", "challenge": "cells persistently infected with Wolbachia before knock-down; no added drug", "measurement": "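Automated imaging of bacterial rRNA staining divided by host cell count, reported as plate-normalised robust z-score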", "scale": "Wolbachia per cell robust z: higher = more Wolbachia per host cell than the plate typical", "hit rule": "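Active if absolute robust z reaches 1.5 in two or more of three replicates, leaving out multi- or no-target dsRNAs, genes unexpressed in JW18 and A1 wells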", "note": "In all, the deposit lists about 24,000 reagents; this is an unselected part of those with a known target gene and a result. In the full data, about 1,210 (5%) were called active. 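Inactive calls also include excluded dsRNAs with several or no targets, genes unexpressed in JW18, and well A1, regardless of score.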 Entries without a mark were called inactive. No sequences are given here."}
{"target": "Tsp68C", "dsRNA": "DRSC09295", "Wolbachia per cell robust z, rep 1": -0.196, "Wolbachia per cell robust z, rep 2": -0.543, "Wolbachia per cell robust z, rep 3": -0.832}
{"target": "Tsp68C", "dsRNA": "DRSC28942", "Wolbachia per cell robust z, rep 1": 1.1, "Wolbachia per cell robust z, rep 2": 0.101, "Wolbachia per cell robust z, rep 3": -0.836}
{"target": "Jhbp1", "dsRNA": "DRSC12167", "Wolbachia per cell robust z, rep 1": -3.07, "Wolbachia per cell robust z, rep 2": 0.24, "Wolbachia per cell robust z, rep 3": -0.418}
{"target": "Jhbp1", "dsRNA": "DRSC26183", "Wolbachia per cell robust z, rep 1": "-1.67 (active)", "Wolbachia per cell robust z, rep 2": -1.78, "Wolbachia per cell robust z, rep 3": -0.632}
{"target": "CG12523", "dsRNA": "DRSC09895", "Wolbachia per cell robust z, rep 1": 0.267, "Wolbachia per cell robust z, rep 2": 0.0781, "Wolbachia per cell robust z, rep 3": -1.24}
{"target": "CG12523", "dsRNA": "DRSC25151", "Wolbachia per cell robust z, rep 1": -0.11, "Wolbachia per cell robust z, rep 2": -0.482, "Wolbachia per cell robust z, rep 3": -0.675}
{"target": "Naxe", "dsRNA": "DRSC18251", "Wolbachia per cell robust z, rep 1": "-6.05 (active)", "Wolbachia per cell robust z, rep 2": -7.27, "Wolbachia per cell robust z, rep 3": -2}
{"target": "Sod1", "dsRNA": "DRSC11286", "Wolbachia per cell robust z, rep 1": 0.0193, "Wolbachia per cell robust z, rep 2": 0.658, "Wolbachia per cell robust z, rep 3": 0.494}
{"target": "Sod1", "dsRNA": "DRSC40766", "Wolbachia per cell robust z, rep 1": 0.824, "Wolbachia per cell robust z, rep 2": 1.2, "Wolbachia per cell robust z, rep 3": 0.237}
{"target": "Ric", "dsRNA": "DRSC07532", "Wolbachia per cell robust z, rep 1": 0.405, "Wolbachia per cell robust z, rep 2": 0.292, "Wolbachia per cell robust z, rep 3": 1.14}
{"target": "Ric", "dsRNA": "DRSC26601", "Wolbachia per cell robust z, rep 1": "-2.05 (active)", "Wolbachia per cell robust z, rep 2": -2.76, "Wolbachia per cell robust z, rep 3": 0.239}
{"target": "Vap33", "dsRNA": "DRSC18384", "Wolbachia per cell robust z, rep 1": 0.0523, "Wolbachia per cell robust z, rep 2": 1, "Wolbachia per cell robust z, rep 3": 0.112}
{"target": "CG34208", "dsRNA": "DRSC38718", "Wolbachia per cell robust z, rep 1": 1.41, "Wolbachia per cell robust z, rep 2": -0.171, "Wolbachia per cell robust z, rep 3": 1.69}
{"target": "CG43689", "dsRNA": "DRSC18046", "Wolbachia per cell robust z, rep 1": 0.364, "Wolbachia per cell robust z, rep 2": 0.395, "Wolbachia per cell robust z, rep 3": 0.226}
{"target": "CG43689", "dsRNA": "DRSC22467", "Wolbachia per cell robust z, rep 1": -1.75, "Wolbachia per cell robust z, rep 2": 0.607, "Wolbachia per cell robust z, rep 3": 0.0865}
{"target": "CG43689", "dsRNA": "DRSC23070", "Wolbachia per cell robust z, rep 1": -2.53, "Wolbachia per cell robust z, rep 2": 0.478, "Wolbachia per cell robust z, rep 3": -0.354}
{"target": "CG43689", "dsRNA": "DRSC25097", "Wolbachia per cell robust z, rep 1": 0.961, "Wolbachia per cell robust z, rep 2": -0.339, "Wolbachia per cell robust z, rep 3": 1.32}
{"target": "CG43689", "dsRNA": "DRSC26563", "Wolbachia per cell robust z, rep 1": 0.155, "Wolbachia per cell robust z, rep 2": -0.164, "Wolbachia per cell robust z, rep 3": -0.6}
{"target": "Mis12", "dsRNA": "DRSC10299", "Wolbachia per cell robust z, rep 1": 0.763, "Wolbachia per cell robust z, rep 2": 1.32, "Wolbachia per cell robust z, rep 3": -1.3}
{"target": "CG11349", "dsRNA": "DRSC08179", "Wolbachia per cell robust z, rep 1": -0.247, "Wolbachia per cell robust z, rep 2": 0.292, "Wolbachia per cell robust z, rep 3": -0.68}
{"target": "CG11349", "dsRNA": "DRSC27563", "Wolbachia per cell robust z, rep 1": -1.01, "Wolbachia per cell robust z, rep 2": 0.121, "Wolbachia per cell robust z, rep 3": -0.754}
{"target": "Atg13", "dsRNA": "DRSC16228", "Wolbachia per cell robust z, rep 1": -4.22, "Wolbachia per cell robust z, rep 2": 0.58, "Wolbachia per cell robust z, rep 3": 1.09}
{"target": "CG16798", "dsRNA": "DRSC02517", "Wolbachia per cell robust z, rep 1": -0.641, "Wolbachia per cell robust z, rep 2": 0.863, "Wolbachia per cell robust z, rep 3": 0.239}
{"target": "CycG", "dsRNA": "DRSC14324", "Wolbachia per cell robust z, rep 1": 1.14, "Wolbachia per cell robust z, rep 2": -0.653, "Wolbachia per cell robust z, rep 3": -3.39}
{"target": "CycG", "dsRNA": "DRSC23345", "Wolbachia per cell robust z, rep 1": -0.186, "Wolbachia per cell robust z, rep 2": -4.87, "Wolbachia per cell robust z, rep 3": -0.171}
{"target": "elgi", "dsRNA": "DRSC10242", "Wolbachia per cell robust z, rep 1": 0.512, "Wolbachia per cell robust z, rep 2": 1.25, "Wolbachia per cell robust z, rep 3": 0.00185}
{"target": "elgi", "dsRNA": "DRSC29665", "Wolbachia per cell robust z, rep 1": -0.0905, "Wolbachia per cell robust z, rep 2": -0.596, "Wolbachia per cell robust z, rep 3": 0.455}
{"target": "CAH15", "dsRNA": "DRSC04534", "Wolbachia per cell robust z, rep 1": 0.46, "Wolbachia per cell robust z, rep 2": -4.05, "Wolbachia per cell robust z, rep 3": 0.156}
{"target": "CAH15", "dsRNA": "DRSC26087", "Wolbachia per cell robust z, rep 1": -0.632, "Wolbachia per cell robust z, rep 2": -1.12, "Wolbachia per cell robust z, rep 3": -0.629}
{"target": "CG43405", "dsRNA": "DRSC40521", "Wolbachia per cell robust z, rep 1": -0.674, "Wolbachia per cell robust z, rep 2": 0.48, "Wolbachia per cell robust z, rep 3": 0.693}
